# Data published in PubChem BioAssay AID504582 (Broad Institute, 2011).
# Only a part is listed here, and it is no random draw. Calls of active or inactive are those of the source. Rule as the data show it: active = growth rescue above about 28% (passing the limit was not always enough); inconclusive = no clear call, values can overlap the other calls.
# Test: rescue of yeast from PfHsp40 toxicity, primary screen, S. cerevisiae, ATP luminescence (AID 504582);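 also: yeast W303a lacking pdr1 and pdr3 grown in galactose medium; growth measured after three days at 30 °C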
# Details: S. cerevisiae expressing PfHsp40, growth rescue, at 12.5 µM, stronger effect = higher value
row,SMILES,growth rescue
1,Cc1ccc(NP(=O)(Oc2ccccc2)Oc2ccccc2)nc1,inactive: 2.16%
2,O=[N+]([O-])c1cc([N+](=O)[O-])c(CCNc2ccccc2)c([N+](=O)[O-])c1,inactive: -0.734%
3,CCc1nc2c(n1)c1c(non1O)c1c2no[n+]1[O-],inactive: -0.296%
4,CC(=O)N1C2C3N(C(C)=O)C1C1N(C(C)=O)C(C(N1C(C)=O)N3C(C)=O)N2C(C)=O,inactive: -0.805%
5,O=[N+]([O-])c1cccc2n[nH]nc12,inactive: -0.276%
6,COc1ccc(C2=NCC(CBr)S2)cc1 (stereo not drawn),inactive: -2.43%
7,CC1CCN(C(=O)Oc2c(Cl)cc(Cl)c3cccnc23)CC1,inactive: 0.175%
8,CC(C)=N/N=C(\N)N[N+](=O)[O-],inactive: -1.06%
9,CN(C)C(=O)OCCc1n(C)cc[n+]1C,inactive: 0.606%
10,CCN(/C(=N/P(=O)(N1CCOCC1)N1CCOCC1)N1CCOCC1)c1ccc(OC)cc1,inactive: -0.505%
11,Nc1ccc([As](=O)(O)c2ccc(N)cc2)cc1,inactive: 0.025%
12,C[N+]1=C2C=CC=CC=C2SC12C([N+](=O)[O-])=CC([N+](=O)[O-])=C[C-]2[N+](=O)[O-] (stereo not drawn),active: 36.5%
13,O=C(Nc1cc([As](=O)(O)O)ccc1O)c1ccccc1,inactive: 0.642%
14,O=P1(N(CCCl)CCCl)OCCCS1 (stereo not drawn),inactive: -0.397%
15,O=C(O)CNc1ccc([As](=O)(O)O)cc1,inactive: 0.733%
16,O=[N+]([O-])c1cccc(NC2=NCC(CBr)S2)c1 (stereo not drawn),inactive: -0.51%
17,COC(=O)C1(C)COP(=O)(Nc2ccccc2)OC1 (stereo not drawn),inactive: 1.08%
18,Cn1c(=O)[nH]c(=O)c2c1nc(Br)n2Cc1ccccc1,inactive: 0.819%
19,O=[N+]([O-])c1ncn(CCn2ncnc2[N+](=O)[O-])n1,inactive: -0.449%
20,CC(C)(C)C(=O)NC(Sc1ccncn1)C(Cl)(Cl)Cl (stereo not drawn),inactive: -1.22%
21,CCOP(=O)(Nc1ccccc1)OCC,inactive: -0.339%
22,Cc1cc(SC(NC(=O)c2ccc(F)cc2)C(Cl)(Cl)Cl)ncn1 (stereo not drawn),inactive: -0.169%
23,CN(C(=O)Cc1ccc(Cl)c(Cl)c1)[C@H]1CCCC[C@@H]1N1CCCC1,inactive: 1.14%
24,Cc1ccc(NP(=O)(Oc2ccccc2F)Oc2ccccc2F)nc1,inactive: 0.322%
25,O=P(Nc1nc2ccc(Cl)cc2s1)(c1ccccc1)c1ccccc1,inactive: 0.808%
26,O=C(O)c1ccccc1[As](=O)(O)O,inactive: 3.44%
27,CC(=O)Nc1ccc([As](=O)(O)O)cc1,inactive: -1.06%
28,CCCC1OP(N)(=O)OCC1CC (stereo not drawn),inactive: 5.05%
